Results of unrelated studies side by side (data: NIAID ChemDB).

All rows: host cell toxicity; cell line: MT-4; measure: CC50

CCn: concentration that lowers growth or viability of the cells by n%. An empty or dashed field is not shown. Rows are shuffled and stem from different studies.

structure	method	value
COc1nc(N(C)C)nc(Cc2c(F)cccc2F)c1C	MTT	67 µM
O=C1NCc2c1cccc2-c1cc(-c2cc(F)cc(Cl)c2)n(-c2ccc(F)c(Cl)c2)n1	resazurin	>3.3 µM
O=C(Cc1ccccn1)NNC(=S)Nc1ccc(F)c(Cl)c1	MTT	>100 µM
O=c1[nH]cnc2ncc(-c3cccs3)nc12	MTT / absorbance	48.22 µM
CC(C)CCC[C@@H](C)[C@H]1CC[C@H]2[C@@H]3CC[C@H]4C[C@@H](NC(=O)CC=C(c5cc(Cl)c(O)c(C(=O)O)c5)c5cc(Cl)c(O)c(C(=O)O)c5)CC[C@]4(C)[C@H]3CC[C@]12C	-	60 µM
O=C1C(=Cc2cc(O)c(O)c(O)c2)C(=O)c2ccccc21	MTT	19 µM
CN(C)C(=O)C(=O)N1CCn2c(nc(C(=O)NCc3ccc(F)cc3)c(O)c2=O)C1(C)C	microscopy	>1 µM
S=c1[nH]nc(Cc2ccccn2)n1-c1cccc(Cl)c1	MTT	>100 µM
COc1c(Cl)cc(C(=CCC(=O)N[C@@H]2CC[C@@]3(C)[C@@H](CC[C@@H]4[C@@H]3CC[C@]3(C)[C@@H]([C@H](C)CCCC(C)C)CC[C@@H]43)C2)c2cc(Cl)c(OC)c(C(=O)O)c2)cc1C(=O)O	-	6 µM
CN(C)C(=O)C(=O)N(C)C1CN(Cc2ccccc2)CCn2c1nc(C(=O)NCc1ccc(F)cc1)c(O)c2=O	microscopy	>1 µM
O=C(O)c1cc(Cc2cc(C(c3ccc(O)c(C(=O)O)c3)c3ccc(O)c(C(=O)O)c3)cc(C(=O)O)c2O)ccc1O	-	74 µg/mL
O=c1nc(N=CN2CCOCC2)ccn1[C@H]1C[C@H](CO)[C@@H](CO)O1	-	>300 µM
Nc1nc2nc(-c3ccccn3)c(-c3ccccn3)nc2c(=O)[nH]1	MTT / absorbance	67.22 µM
O=C1/C(=C/c2cc(O)c(O)c(O)c2)CC(C(=O)O)C/C1=C\c1cc(O)c(O)c(O)c1	MTT	70 µM
COC1=NC=C[C@@H]2O[C@@H]3SC(OC)=NC=C[C@@H]3O[C@@H]2S1	MTT / absorbance	44 µM
O=C(CSc1nc2nc(C3=CCC=C=N3)c(-c3ccccn3)nc2c(=O)[nH]1)c1ccccc1	MTT / absorbance	41.88 µM
O=C(Cc1ccccn1)NNC(=S)Nc1cccc(C(F)(F)F)c1	MTT	>100 µM
O=C1/C(=C/c2ccc(Cl)c(Cl)c2)CSC/C1=C\c1ccc(Cl)c(Cl)c1	MTT	31 µM
CC(=O)Nc1ccn([C@H]2C[C@H](CO)[C@@H](CO)O2)c(=O)n1	-	>300 µM
C[C@H](CS)C(=O)N1CCC[C@@H]1c1nc2ncccc2[nH]1	MTT	5.12 µg/mL
CN1CCn2c(nc(C(=O)NCc3ccc(F)cc3)c(O)c2=O)C(NS(C)(=O)=O)C1	microscopy	>1 µM
O=C(c1c(O)cc(O)cc1O)c1c(-c2ccc(O)cc2)oc2cc(O)c3c(c12)O[C@H](c1ccc(O)cc1)[C@@H](O)C3	-	>100 µg/mL
Cc1ccc(NC(=S)NNC(=O)Cc2ccccn2)cc1Cl	MTT	>100 µM
Cc1cc(C)c(S(=O)(=O)OCC2OC3OC4C(CO)OC(OC5C(CO)OC(OC6C(CO)OC(OC7C(CO)OC(OC8C(CO)OC(OC9C(C[n+]%10ccccc%10)OC(OC2C(O)C3O)C(O)C9O)C(O)C8O)C(O)C7O)C(O)C6O)C(O)C5O)C(O)C4O)c(C)c1	-	>1000 µg/mL
CCn1cc(C(=O)O)c(=O)c2cc(F)c(N3CCN(CN4C(=O)/C(=N\c5ncc(Cc6cc(OC)c(OC)c(OC)c6)c(N)n5)c5cc(F)ccc54)CC3)cc21	MTT	160.2 µg/mL
Cc1ccc(-n2nc(-c3nccc4c3CNC4=O)cc2-c2cc(F)cc(Cl)c2)cc1Cl	resazurin	>3.3 µM
CN(C)C(=O)C(=O)N(C)C1COCCn2c1nc(C(=O)NCc1ccc(F)cc1)c(O)c2=O	microscopy	>1 µM
O=C1NCc2c1ccnc2-c1cc(-c2cc(F)cc(Cl)c2)n(-c2cccc(Cl)c2)n1	resazurin	>3.3 µM
Cc1c(Cl)nc(N(C)C)nc1C(C#N)c1c(F)cccc1F	MTT	34 µM
O=C1NCc2c1cccc2-c1cc(-c2ccc(F)c(OC(F)(F)F)c2)n(-c2cccc(Cl)c2)n1	resazurin	>3.3 µM
C[C@H](CS)C(=O)N1CCC[C@@H]1c1nc2ncnc(N)c2[nH]1	MTT	24.7 µg/mL
O=C(O)c1cc(C(O)(c2ccc(O)c(C(=O)O)c2)c2ccc(O)c(C(=O)O)c2)ccc1O	-	41 µg/mL
Nc1ccn([C@H]2CC[C@@H](CO)O2)c(=O)n1	-	38 µg/mL
O=C1NCc2c1ccnc2-c1cc(-c2cc(Cl)cc(OC(F)(F)F)c2)n(-c2cccnc2)n1	resazurin	>3.3 µM
COc1c(Cl)cc(C(=CCN[C@H]2CC[C@@]3(C)[C@@H](CC[C@@H]4[C@@H]3CC[C@]3(C)[C@@H]([C@H](C)CCCC(C)C)CC[C@@H]43)C2)c2cc(Cl)c(OC)c(C(=O)O)c2)cc1C(=O)O	-	>150 µM
O=C1NCc2c1cccc2-c1cc(-c2cncc(Cl)c2)n(-c2ccc(F)c(Cl)c2)n1	resazurin	>3.3 µM
COc1cc(Cc2cnc(/N=C3\C(=O)N(CN4CCN(c5ccc(Cl)cc5)CC4)c4ccc(F)cc43)nc2N)cc(OC)c1OC	MTT	90.1 µg/mL
NC(=O)c1[nH]c2ccc(Cl)cc2c1S(=O)(=O)CC1CCCCC1	microscopy	>10 µM
CCc1c(Cc2cccc3ccccc23)n(CSC)c(=O)[nH]c1=O	-	27 µM
COc1ccc(-c2csc3nc4nc(-c5ccccn5)c(-c5ccccn5)nc4c(=O)n23)cc1	MTT / absorbance	18.99 µM
CCOC(=O)C1C/C(=C\c2cc(O)c(O)c(O)c2)C(=O)/C(=C/c2cc(O)c(O)c(O)c2)C1	MTT	67 µM
Cc1ccc(Nc2nnc(Cc3ccccn3)s2)cc1Cl	MTT	47 µM
Nc1[nH]c(=O)nc2nc(-c3ccccn3)c(-c3ccccn3)nc12	MTT / absorbance	75.34 µM
O=C1NCc2c1ccnc2-c1cc(-c2cncc(Cl)c2)n(-c2ccc(F)c(Cl)c2)n1	resazurin	>3.3 µM
O=C(O)c1cccc(Cc2cccc(C(=O)O)c2O)c1O	-	41 µg/mL
CCN(CC)CN1C(=O)/C(=N\c2ncc(Cc3cc(OC)c(OC)c(OC)c3)c(N)n2)c2cc(F)ccc21	MTT	141 µg/mL
CCN1C/C(=C\c2cc(O)c(O)c(O)c2)C(=O)/C(=C/c2cc(O)c(O)c(O)c2)C1	MTT	40 µM
CCOC(=O)c1[nH]c2ccc(Cl)cc2c1SCC1CCC1	microscopy	>10 µM
O=c1nc(N=CN2CCCC2)ccn1[C@H]1C[C@H](CO)[C@@H](CO)O1	-	>300 µM
O=C1NCc2c1ccnc2-c1cc(-c2cc(Cl)cc(C(F)(F)F)c2)n(-c2ccc(F)c(Cl)c2)n1	resazurin	>3.3 µM
COc1cc(Cc2cnc(/N=C3\C(=O)N(CN(C)C)c4ccc(F)cc43)nc2N)cc(OC)c1OC	MTT	62.7 µg/mL
CN(C)C=Nc1ccn([C@H]2C[C@H](COC(=O)N[C@@H](Cc3ccccc3)C(=O)NC(=O)OC(C)(C)C)[C@@H](COC(=O)N[C@@H](Cc3ccccc3)C(=O)NC(=O)OC(C)(C)C)O2)c(=O)n1	-	>300 µM
NC(=O)c1[nH]c2ccc(Cl)cc2c1S(=O)(=O)C1CC1	microscopy	>10 µM
CCCN(C=Nc1ccn([C@H]2C[C@H](CO)[C@@H](CO)O2)c(=O)n1)CCC	-	>300 µM
CCOC(=O)CC1C/C(=C\c2cc(O)c(O)c(O)c2)C(=O)/C(=C/c2cc(O)c(O)c(O)c2)C1	MTT	40 µM
CCc1c(Cc2cccc3ccccc23)nc(SCSC)[nH]c1=O	-	>100 µM
O=c1ncc2nc(-c3ccccn3)c(-c3ccccn3)nc2[nH]1	MTT / absorbance	82.3 µM
COc1cc(Cc2cnc(/N=C3\C(=O)N(CN4CCC(C)CC4)c4ccc(F)cc43)nc2N)cc(OC)c1OC	MTT	69.6 µg/mL
CC1(C)c2nc(C(=O)NCc3ccc(F)cc3)c(O)c(=O)n2CCN1Cc1ccccc1	microscopy	>1 µM
COc1nc(N(C)C)nc(C(C#N)c2c(F)cccc2F)c1C	MTT	10 µM
CC(C)CCC[C@@H](C)[C@H]1CC[C@H]2[C@@H]3CC[C@H]4C[C@@H](NC(=O)C=C(c5cc(Cl)c(O)c(C(=O)O)c5)c5cc(Cl)c(O)c(C(=O)O)c5)CC[C@]4(C)[C@H]3CC[C@]12C	-	52.2 µM
O=c1c2nc(-c3ccccn3)c(-c3ccccn3)nc2nc2scc(-c3ccccc3)n12	MTT / absorbance	2.52 µM
CCOC(=O)c1[nH]c2ccc(Cl)cc2c1S(=O)(=O)CC1CCCCC1	microscopy	>10 µM
Cc1ccc(Cl)c(-n2c(Cc3ccccn3)n[nH]c2=S)c1	MTT	>100 µM
C[C@H](CS)C(=O)N1CCC[C@@H]1c1nc2ncncc2[nH]1	MTT	59.05 µg/mL
CC(C)[C@H](NC(=O)OC[C@H]1C[C@H](n2ccc(N=CN(C)C)nc2=O)O[C@@H]1COC(=O)N[C@H](C(=O)NC(=O)OC(C)(C)C)C(C)C)C(=O)NC(=O)OC(C)(C)C	-	>300 µM
COc1cc(C(C#N)c2c(F)cccc2F)nc(N(C)C)n1	MTT	40 µM
FC(F)(F)c1cccc(Nc2nnc(Cc3ccccn3)s2)c1	MTT	70.6 µM
C[C@H](CSCC(=O)O)C(=O)N1CCC[C@@H]1C(=O)O	MTT	125 µg/mL

4 of the rows above, restated:

| structure | method | value |
|---|---|---|
| CC(C)[C@H](NC(=O)OC[C@H]1C[C@H](n2ccc(N=CN(C)C)nc2=O)O[C@@H]1COC(=O)N[C@H](C(=O)NC(=O)OC(C)(C)C)C(C)C)C(=O)NC(=O)OC(C)(C)C | - | >300 µM |
| O=C(CSc1nc2nc(C3=CCC=C=N3)c(-c3ccccn3)nc2c(=O)[nH]1)c1ccccc1 | MTT / absorbance | 41.88 µM |
| O=C(Cc1ccccn1)NNC(=S)Nc1ccc(F)c(Cl)c1 | MTT | >100 µM |
| NC(=O)c1[nH]c2ccc(Cl)cc2c1S(=O)(=O)C1CC1 | microscopy | >10 µM |